According to US6177441A, “Treating red blood cell solutions with anti-viral agents” (Cerus Corporation, priority 1998, dated 2001):
Like-named read-outs stand apart in the source and are kept apart here.

Legend:
cell-associated HIV [1] = experiment: Cell-associated HIV inactivation in the presence of red blood cells (Example 9); assay type: cell-based, HIVIIIB; conditions: 0 μg/ml 5.5 (QM), 5.7 (ICR-170)
cell-associated HIV [2] = conditions: for Log Titer: no QM 5.5
cell-free HIV = experiment: Cell-free HIV inactivation in the presence of red blood cells (Example 9); assay type: cell-based; conditions: 0 μg/ml 5.7
[3] = tested on: duck hepatitis B virus (DHBV); experiment: Inactivation of duck hepatitis B virus, slot blot and PCR in duck hepatocytes (Example 6); conditions: for DHBV inactivated: viral titer 6 logs per ml
[4] = 10 μg/ml QM, dilution 10^-3, 10 days, plates 53, 54

Compound: COc1ccc2nc3cc(Cl)ccc3c(NC(C)CCCN(CCCl)CCCl)c2c1.Cl.Cl (centres unmarked)
- Log Titer (cell-associated HIV [1]; 20 μg/ml): 3.6
- Log Titer (cell-associated HIV [1]; 40 μg/ml): 2.5
- Log Titer (cell-associated HIV [2]; 10 μg/ml): < 0.7
- Log Titer (cell-associated HIV [2]; 30 μg/ml): < 0.3
- Log Titer (cell-associated HIV [2]; 150 μg/ml): < 0.3
- cell-associated HIV inactivation (cell-associated HIV [2]; concentrations such as 10 μg/ml and below): inactivates cell-associated HIV
- Log Titer (cell-free HIV; 20 μg/ml): 3.0 pfu/ml
- Log Titer (cell-free HIV; 40 μg/ml): 0 pfu/ml
- Log Titer (cell-free HIV; 80 μg/ml): 0 pfu/ml
- PCR Results ([3]; 10 μg/ml QM, dilution 10^-2, 1 day, plate 57): -
- Blot Results ([3]; 10 μg/ml QM, dilution 10^-2, 1 day, plates 57, 58): -, -
- PCR Results ([3]; 10 μg/ml QM, dilution 10^-2, 10 days, plate 60): +
- Blot Results ([3]; 10 μg/ml QM, dilution 10^-2, 10 days, plates 59, 60): -, -
- PCR Results ([3]; 10 μg/ml QM, dilution 10^-2, 15 days, plate 61): +
- Blot Results ([3]; 10 μg/ml QM, dilution 10^-2, 15 days, plates 61, 62): -, -
- Blot Results [3, 4]: -, -
- PCR Results [3, 4]: -, -
- PCR Results ([3]; 10 μg/ml QM, dilution 10^-3, 15 days, plate 56): -
- Blot Results ([3]; 10 μg/ml QM, dilution 10^-3, 15 days, plates 55, 56): -, -
- PCR Results ([3]; 10 μg/ml QM, dilution 10^-4, 10 days, plate 50): -
- Blot Results ([3]; 10 μg/ml QM, dilution 10^-4, 10 days, plates 49, 50): -, -
- Blot Results ([3]; 10 μg/ml QM, dilution 10^-4, 15 days, plates 51, 52): -, -
- Blot Results ([3]; 10 μg/ml QM, dilution 10^-5, 10 days, plates 45, 46): -, -
- Blot Results ([3]; 10 μg/ml QM, dilution 10^-5, 15 days, plates 47, 48): -, -
- DHBV inactivated ([3]; 10 μg/ml QM): 4 logs per ml
- PCR Results ([3]; 40 μg/ml QM, dilution 10^-1, 1 day, plate 40): -
- Blot Results ([3]; 40 μg/ml QM, dilution 10^-1, 1 day, plates 39, 40): -, -
- PCR Results ([3]; 40 μg/ml QM, dilution 10^-1, 10 days, plate 41): -
- Blot Results ([3]; 40 μg/ml QM, dilution 10^-1, 10 days, plates 41, 42): -, -
- PCR Results ([3]; 40 μg/ml QM, dilution 10^-1, 15 days, plate 43): -
- Blot Results ([3]; 40 μg/ml QM, dilution 10^-1, 15 days, plates 43, 44): -, -
- PCR Results ([3]; 40 μg/ml QM, dilution 10^-2, 10 days, plate 35): -
- Blot Results ([3]; 40 μg/ml QM, dilution 10^-2, 10 days, plates 35, 36): -, -
- PCR Results ([3]; 40 μg/ml QM, dilution 10^-2, 15 days, plate 37): -
- Blot Results ([3]; 40 μg/ml QM, dilution 10^-2, 15 days, plates 37, 38): -, -
- PCR Results ([3]; 40 μg/ml QM, dilution 10^-3, 10 days, plate 31): -
- Blot Results ([3]; 40 μg/ml QM, dilution 10^-3, 10 days, plates 31, 32): -, -
- PCR Results ([3]; 40 μg/ml QM, dilution 10^-3, 15 days, plate 33): -
- Blot Results ([3]; 40 μg/ml QM, dilution 10^-3, 15 days, plates 33, 34): -, -
- Blot Results ([3]; 40 μg/ml QM, dilution 10^-4, 10 days, plates 27, 28): -, -
- Blot Results ([3]; 40 μg/ml QM, dilution 10^-4, 15 days, plates 29, 30): -, -
- Blot Results ([3]; 40 μg/ml QM, dilution 10^-5, 10 days, plates 23, 24): -, -
- Blot Results ([3]; 40 μg/ml QM, dilution 10^-5, 15 days, plates 25, 26): -, -
- DHBV inactivated ([3]; 40 μg/ml QM): > 6 logs of DHBV per ml
